For five compounds, volume of foam results are on record in patent publication US20070264355A1, “BINARY COMPOSITIONS AND METHODS FOR STERILIZATION” (Binary, LLC, priority 2005, published 2007).

This series in a line: Foam experiments (bleach with surface active agent plus hydrogen peroxide). The class given is physicochemical.
Setting [1] is: 0-30 sec after mixing, agent 2% in 5.25% bleach (2 ml) + 2 ml 30% hydrogen peroxide.
Setting [2] is: 5 min after mixing, agent 2% in 5.25% bleach (2 ml) + 2 ml 30% hydrogen peroxide.

`CCCCCCCCCCCCOS(=O)(=O)[O-].[Na+]` [SDS, Sodium dodecyl sulfate]: the volume of foam by setting is: under setting [1], 32.5 mL; under setting [2], 35 mL.
Regarding Benzalkonium Chloride, the volume of foam runs as follows: under setting [1], 37.5 mL; under setting [2], 5 mL.
As for Polyoxyethylene lauryl ether [BRIJ 35], the volume of foam under setting [1] came out at 30 mL and the volume of foam under setting [2] was 35 mL.
Regarding “Polyoxyethylene sorbitan monooleate [Tween 80]”, the volume of foam was 30 mL under setting [1] and 35 mL under setting [2].
As for “Sodium octylphenoxypolyethoxyethyl sulfonate [Triton x200]”, the volume of foam was found to be 32.5 mL (0-30 sec after mixing, agent 1% in bleach + 30% hydrogen peroxide); 32.5 mL under setting [1]; 27.5 mL (5 min after mixing, agent 1% in bleach + 30% hydrogen peroxide); 27.5 mL under setting [2].
